Compound potency records, mixed from different reports. Data source: NIAID ChemDB in PubChem.

Common to all: target-level tests

ICn is the concentration giving n% inhibition. Fold resistance has wild type as its base. An empty or dashed field is not shown. a–b is a range or a potency band. Percent inhibition refers to the dose given; in toxicity tests it is the harm to the cells. Lines come from different laboratories, so protocols vary.

smiles | dose | method | mutations | strain | read-out | target | agent | value
Clc1cnccn1 | 2000 µM | - | - | RH | inhibition | Uracil phosphoribosyltransferase | Toxoplasma gondii | <10%
O=C(O)c1nc(-c2cccc(CS(=O)(=O)c3cccs3)c2)[nH]c(=O)c1O | - | - | - | - | IC50 | HCV polymerase | Hepatitis C virus | <100 µM
O=C(O)C(Br)(Br)P(=O)(O)O | 100 µM | - | - | - | inhibition | DNA polymerase | Herpes simplex virus 1 | 4.5%
CCOc1ccc2ccccc2c1C(=O)Nc1nnc(NC[C@@H]2CCC3CC2C3(C)C)s1 | - | - | - | - | IC50 | Polymerase | Human cytomegalovirus | >25 µM
Cc1cn([C@@H]2O[C@H](CO[Si](C)(C)C(C)(C)C)[C@@]3(OS(=O)(=O)C=C3N)[C@H]2O[Si](C)(C)C(C)(C)C)c(=O)[nH]c1=O | - | nucleotide incorporation / radiometric | RT-P140A | - | fold resistance | Reverse transcriptase | HIV | 0.67
O=C(O)C(F)P(=O)(O)O | 100 µM | - | - | - | inhibition | DNA polymerase | Epstein-Barr virus | 74%
O=C(Nc1nnc(NC2CCCCCC2)s1)c1ccc2c(c1)C(=O)OC2=O | - | - | - | - | IC50 | Polymerase | Human cytomegalovirus | <25 µM
CN(C(=O)c1ccc(C(F)(F)F)cc1)c1cc(-c2ccccc2)sc1C(=O)O | - | - | - | - | IC50 | NS3 ATPase | Hepatitis C virus | 5–20 µM
O=C(Nc1nnc(NCC(c2ccccc2)c2ccccc2)s1)c1ccc(Br)cc1 | - | - | - | - | IC50 | Polymerase | Human cytomegalovirus | >25 µM
Cc1[nH]c2ccccc2c1CC(=O)Nc1ccsc1-c1nc(C(=O)O)c(O)c(=O)[nH]1 | - | - | - | - | IC50 | HCV polymerase | Hepatitis C virus | <25 µM
O=C(O)C(Cl)(Br)P(=O)(O)O | 100 µM | - | - | - | inhibition | DNA polymerase | Herpes simplex virus 2 | 0%
CC(C)=CCOc1cc(NC(=S)c2ccoc2C)ccc1Cl | - | nucleotide incorporation / radiometric | RT-N137S | - | IC50 | Reverse transcriptase | HIV | 0.05 µM
CC(=O)OC1C=COC=C2C[C@@]34SC(=S)S[C@]5(CC6=COC=CC(OC(C)=O)C6N5C3=O)C(=O)N4C21 | - | - | - | TYPE A21 | IC50 | RNA polymerase | Coxsackie virus | 18 µg/mL
O=C1NC(=O)C(Cc2ccc(OCc3ccccc3)cc2)C(=O)N1 | 2000 µM | - | - | RH | inhibition | Uracil phosphoribosyltransferase | Toxoplasma gondii | <5%
CC(CO)N(C(=O)c1ccc(Cl)cc1Cl)c1cc(-c2ccccc2)sc1C(=O)O | - | - | - | - | IC50 | NS3 ATPase | Hepatitis C virus | <5 µM
CC(C)C(=O)N1C[C@H](CN2CCC(c3ccccc3)CC2)[C@@H](c2ccccc2)C1 | - | radiometric | CCR5-W86A | - | fold resistance | CCR5 | - | 6.92
O=c1cn[nH]c(=O)[nH]1 | - | - | - | RH | IC50 | Uracil phosphoribosyltransferase | Toxoplasma gondii | >2000 µM
O=C(Nc1ccc(C(F)(F)F)cc1)Nc1cccc(-c2nc(C(=O)O)c(O)c(=O)[nH]2)c1 | - | - | - | - | IC50 | HCV polymerase | Hepatitis C virus | <100 µM
C=CCN(C(=O)OCc1ccc([N+](=O)[O-])cc1)C1CCN(CC[C@](C)(CN(C)S(=O)(=O)c2ccccc2)c2ccccc2)CC1 | - | radiometric | CCR5-Y37A | - | fold resistance | CCR5 | - | 0.765
c1cncnc1 | - | - | - | RH | IC50 | Uracil phosphoribosyltransferase | Toxoplasma gondii | >2000 µM
CN1C(=O)[C@]23CC4=CC=C[C@H](O)[C@H]4N2C(=O)[C@@]1(CO)SSSS3 | - | - | - | TYPE A21 | IC50 | RNA polymerase | Coxsackie virus | 0.8 µg/mL
CN(CC(C)(CCN1CCC(N(CCO)C(=O)OCc2ccc([N+](=O)[O-])cc2)CC1)c1ccsc1)S(=O)(=O)c1ccccc1 | - | radiometric | CCR5-Y251A | - | IC50 | CCR5 | - | 0.051 µM
CCCCCCCC/C=C/CCCCCCCC(=O)Nc1nnc(NCCC(c2ccccc2)c2ccccc2)s1 | - | - | - | - | IC50 | Polymerase | Human cytomegalovirus | <25 µM
O=C(Nc1ccsc1-c1nc(C(=O)O)c(O)c(=O)[nH]1)OCCc1ccc(Cl)cc1Cl | - | - | - | - | IC50 | HCV polymerase | Hepatitis C virus | <25 µM
Nc1nc2c(ncn2[C@H]2CC[C@@H](COP(=O)(O)OP(=O)(O)OP(=O)(O)O)O2)c(=O)[nH]1 | - | nucleotide incorporation / radiometric | RT-P140A | - | IC50 | Reverse transcriptase | HIV | 1.3 µM
O=C(Nc1nnc(NCCCNC2CCCCC2)s1)c1ccc(C(F)(F)F)cc1 | - | - | - | - | IC50 | Polymerase | Human cytomegalovirus | <25 µM
CS[C@@]12CC3=COC=CC(OC(C)=O)C3N1C(=O)[C@]1(SC)CC3=COC=CC(OC(C)=O)C3N1C2=O | - | - | - | TYPE A21 | IC50 | RNA polymerase | Coxsackie virus | 1 µg/mL
COC(=O)c1cc(=O)[nH]c(=O)[nH]1 | - | - | - | RH | IC50 | Uracil phosphoribosyltransferase | Toxoplasma gondii | >2000 µM
O=C(O)c1sccc1NS(=O)(=O)c1ccc(Br)cc1 | - | - | - | - | IC50 | NS3 ATPase | Hepatitis C virus | <5 µM
CCOC(=O)OC1C=COC=C2C[C@@]34SS[C@]5(CC6=COC=CC(OC(=O)OCC)C6N5C3=O)C(=O)N4C21 | - | - | - | TYPE A21 | IC50 | RNA polymerase | Coxsackie virus | 0.08 µg/mL
N#Cc1ccc(C(=O)Nc2nnc(NCCc3c[nH]c4ccccc34)s2)cc1 | - | - | - | - | IC50 | Polymerase | Human cytomegalovirus | <25 µM
CO[P@](=O)(c1cc(C)cc(/C=C/C#N)c1)c1c(C(N)=O)[nH]c2ccc(Cl)cc12 | - | - | - | - | IC50 | Reverse transcriptase | HIV | <0.343 µM
Cc1ccccc1S(=O)(=O)Nc1cc(C#C[Si](C)(C)C)sc1C(=O)O | - | - | - | - | IC50 | NS3 ATPase | Hepatitis C virus | <5 µM
O=C(Nc1nnc(NCCNc2ccccc2)s1)c1ccc(S(=O)(=O)F)cc1 | - | - | - | - | IC50 | Polymerase | Human cytomegalovirus | >25 µM
CCOc1ccccc1COC(=O)Nc1ccsc1-c1nc(C(=O)O)c(O)c(=O)[nH]1 | - | - | - | - | IC50 | HCV polymerase | Hepatitis C virus | <25 µM
O=C(Nc1nnc(NC2CCN(Cc3ccccc3)CC2)s1)c1ccc(S(=O)(=O)F)cc1 | - | - | - | - | IC50 | Polymerase | Human cytomegalovirus | >25 µM
O=P(O)(O)C(F)(Cl)P(=O)(O)O | - | - | - | - | IC50 | DNA polymerase | Herpes simplex virus 2 | >100 µM
CCOC(=O)OC1C=COC=C2C[C@@]34SS[C@]5(CC6=COC=CC(O)C6N5C3=O)C(=O)N4C21 | - | - | - | TYPE A21 | IC50 | RNA polymerase | Coxsackie virus | 0.0002 µg/mL
O=C1CCCC(=O)O1 | 2000 µM | - | - | RH | inhibition | Uracil phosphoribosyltransferase | Toxoplasma gondii | <10%
O=P(O)(O)C(F)(F)P(=O)(O)O | - | - | - | - | IC50 | DNA polymerase | Epstein-Barr virus | >100 µM

Again, the opening 6 rows:

smiles,dose,method,mutations,strain,read-out,target,agent,value
Clc1cnccn1,2000 µM,-,-,RH,inhibition,Uracil phosphoribosyltransferase,Toxoplasma gondii,<10%
O=C(O)c1nc(-c2cccc(CS(=O)(=O)c3cccs3)c2)[nH]c(=O)c1O,-,-,-,-,IC50,HCV polymerase,Hepatitis C virus,<100 µM
O=C(O)C(Br)(Br)P(=O)(O)O,100 µM,-,-,-,inhibition,DNA polymerase,Herpes simplex virus 1,4.5%
CCOc1ccc2ccccc2c1C(=O)Nc1nnc(NC[C@@H]2CCC3CC2C3(C)C)s1,-,-,-,-,IC50,Polymerase,Human cytomegalovirus,>25 µM
Cc1cn([C@@H]2O[C@H](CO[Si](C)(C)C(C)(C)C)[C@@]3(OS(=O)(=O)C=C3N)[C@H]2O[Si](C)(C)C(C)(C)C)c(=O)[nH]c1=O,-,nucleotide incorporation / radiometric,RT-P140A,-,fold resistance,Reverse transcriptase,HIV,0.67
O=C(O)C(F)P(=O)(O)O,100 µM,-,-,-,inhibition,DNA polymerase,Epstein-Barr virus,74%